A mixed list of measured activities; the numbers were collected in NIAID ChemDB.

All rows: growth or infection tests; organism: Mycobacterium tuberculosis

"inactive" is the filed call at that dose; no cut-off is given. A number after MIC or MFC names an inhibition level or a share of isolates. Inhibition is in % at the dose shown (toxicity tests: loss of growth or viability). MIC bound comes from a single tested concentration. Lines come from different laboratories, so protocols vary. An empty or dashed field is not shown.

SMILES	changes	dose	strain or isolate	read by	cells	read-out	setting	value
CO[C@H]1/C=C/O[C@@]2(C)Oc3c(C)c(O)c4c(=O)c(c5oc6cc(N(C)CCc7ccccn7)cc(=O)c6nc5c4c3=C2O)NC(=O)/C(C)=C\C=C\[C@H](C)[C@H](O)[C@@H](C)[C@@H](O)[C@@H](C)[C@H](OC(C)=O)[C@@H]1C			H37Rv			MIC		0.017 µg/mL
O=[N+]([O-])c1ccc(Nc2nnc(-c3sc4ccc(Cl)cc4c3Cl)s2)cc1		6.25 µg/mL	H37Rv	BACTEC		inhibition		0%
CC(=O)c1ccn2c(-c3ccccc3)c(-c3ccccc3)c(C(O)c3ccccc3)c2c1		6.25 µg/mL	H37Rv			inhibition		18%
CC(=O)OC[C@@H](OC(C)=O)[C@H](/C=C/CC[N+](=O)[O-])OC(C)=O		6.25 µg/mL	H37Rv	agar		inhibition		100%
COC(=O)/C(=N\NC(N)=O)C(C(=O)C(=O)Nc1ccc(C)cc1)c1nc2ccc(C(=O)c3ccccc3)cc2[nH]c1=O			H37Rv	resazurin		MIC bound		>6.25 µg/mL
O=C1/C(=C/c2ccco2)CNC/C1=C\c1ccco1			H37Rv	agar / visual reading		MIC		6.25 µg/mL
CN[C@@H]1[C@H](O[C@H]2[C@H](O[C@H]3[C@H](O)[C@@H](O)[C@H](N=C(N)N)[C@@H](O)[C@@H]3N=C(N)N)O[C@@H](C)[C@]2(O)C=O)O[C@@H](CO)[C@H](O)[C@H]1O	Bedaquiline-resistant A63P			broth dilution		MIC80		0.3 µM
CO[C@H]1/C=C/O[C@@]2(C)Oc3c(C)c(O)c4c(=O)c(c5oc6cc(N7CCC7)cc(=O)c6nc5c4c3=C2O)NC(=O)/C(C)=C\C=C\[C@H](C)[C@H](O)[C@@H](C)[C@@H](O)[C@@H](C)[C@H](OC(C)=O)[C@@H]1C			H37Rv			MIC		0.008 µg/mL
CC(=O)OC[C@@H](OC(C)=O)[C@H](/C=C/C=C(\C)[N+](=O)[O-])OC(C)=O		25 µg/mL	H37Rv	agar		inhibition		inactive
O=[N+]([O-])c1ccc(NN=C2/C(=C/c3ccco3)CNC/C2=C\c2ccco2)c([N+](=O)[O-])c1			H37Rv	agar / visual reading		MIC		0.39 µg/mL
O=C(N/N=C/c1ccc(Cl)cc1)Nc1ccc2c(c1)C(=O)C(=O)N2CN1CCCC1			MDR	resazurin		MIC		>50 µg/mL
C[C@@H](NC(=O)OCc1ccccc1)c1cnc(-c2ccc([N+](=O)[O-])cc2)[nH]1			My 331/88			MIC	14 d	>125 µM
C=C(C)C1CC=C(C)/C(=N/NC(=O)c2cccnc2)C1	inhA 15C to T			visual reading / absorbance		MIC		25 µM
NC(=O)c1csc(NC2OC(CO)C(O)C(O)C2O)n1		12.5 µg/mL	H37Rv	BACTEC		inhibition		-18%
Cc1ccc(/C=N/NC(=O)Nc2ccc3c(c2)C(=O)C(=O)N3CN2CCN(C)CC2)cc1			MDR	resazurin		MIC		>50 µg/mL
CCOC(=O)C1=C(Nc2ccc(Cl)cc2)C(=O)N(C(C)(C)C)C1			H37Rv	BACTEC		MIC		≥12.8 µg/mL
CC(C)[C@H](NC(=O)OCc1ccccc1)c1cnc(-c2ccccc2)[nH]1			My 331/88			MIC	21 d	62.5 µM
NC(=S)NN=C1/C(=C/c2ccco2)CNC/C1=C\c1ccco1			H37Rv	agar / visual reading		MIC		3.125 µg/mL
NNC(=O)c1ccncc1	Isoniazid-resistant		35822	broth dilution		MIC80		>15 µM
CC(=O)O[C@@]12CO[C@@H]1C[C@H](O)[C@@]1(C)C(=O)[C@H](OC(=O)N(C)C)C3=C(C)[C@@H](OC(=O)/C=C/c4ccc5ccccc5c4)C[C@@](O)([C@@H](OC(=O)c4ccccc4)[C@H]21)C3(C)C			IMCJ946.K2	PCR		MIC		1.25 µM
C(=C1/CNC/C(=C\c2ccco2)C1=NNc1ccccc1)/c1ccco1			H37Rv	agar / visual reading		MIC		1.56 µg/mL
C1=C(c2nc(-c3cccnc3)no2)c2ccccc2C12CCN(CC1CCCO1)CC2	Ethambutol-resistant		17003	resazurin		MIC		1.56 µM
O=C1c2ccccc2NC2(C(=O)Nc3ccccc32)N1N1CCOCC1			H37Rv	resazurin		MIC bound		>6.25 µg/mL
CN1CCN(CN2C(=O)C(=O)c3cc(NC(=O)N/N=C/c4ccc(Cl)cc4)ccc32)CC1			MDR	resazurin		MIC		12.5 µg/mL
Cc1ccc(-c2noc(C3=CC4(CCN(CC5CCCO5)CC4)c4ccccc43)n2)cn1	Streptomycin-resistant		136570	resazurin		MIC		1.56 µM
CCCC/C=C/c1c(-c2ccccc2)c(-c2ccccc2)n2ccc(C#N)cc12		6.25 µg/mL	H37Rv			inhibition		46%
Clc1ccc2sc(-c3nnc(Nc4ccccc4)s3)c(Cl)c2c1		6.25 µg/mL	H37Rv	BACTEC		inhibition		0%
Cc1ccc(NC2=CC(=O)C(=O)c3ccccc32)cc1			H37Rv	resazurin		MIC bound		<6.25 µg/mL
C1=C(c2nc(-c3ccsc3)no2)c2ccccc2C12CCN(CC1CCCO1)CC2			H37Rv	resazurin		MIC		1.1 µM
O=C(NN1C(=O)CS(=O)(=O)C1c1ccc(C(F)(F)F)cc1)c1ccncc1	KatG S315R			visual reading / absorbance		MIC		50 µM
O=[N+]([O-])c1ccc(N/N=C/c2ccco2)nc1		12.5 µg/mL	H37Rv	BACTEC		inhibition		20%
CC(=O)Nc1ccc(NC(=O)CSc2nnc(-c3ccc4ncccc4c3)o2)cc1			H37Rv	agar		MIC		100 µg/mL
CC(=O)NC(C)CCC[C@H](OC(C)=O)[C@@H](COC(C)=O)OC(C)=O		12.5 µg/mL	H37Rv	agar		inhibition		100%
Cc1ccccc1NC(=S)NNC(=O)c1sc2ccc(Cl)cc2c1Cl		6.25 µg/mL	H37Rv	BACTEC		inhibition		0%
Clc1ccc(N=C2/C(=C/c3ccco3)CNC/C2=C\c2ccco2)c(Cl)c1			H37Rv	agar / visual reading		MIC		3.125 µg/mL
CC(=O)OC[C@@H](OC(C)=O)[C@H](/C=C/C(O)C[N+](=O)[O-])OC(C)=O		25 µg/mL	H37Rv	agar		inhibition		inactive
CO[C@H]1/C=C/O[C@@]2(C)Oc3c(C)c(O)c4c(=O)c(c5oc6cc(N7CCN(C(C)C)CC7)cc(=O)c6nc5c4c3=C2O)NC(=O)/C(C)=C\C=C\[C@H](C)[C@H](O)[C@@H](C)[C@@H](O)[C@@H](C)[C@H](OC(C)=O)[C@@H]1C			H37Rv			MIC		0.017 µg/mL
NC(=O)c1c([N+](=O)[O-])ncn1[C@H]1C[C@H](O)[C@@H](CO)O1			H37Rv	resazurin		MIC bound		>6.25 µg/mL
CNC(=O)CN1CCC2(C=C(c3nc(-c4ccc(OC)cc4)no3)c3ccccc32)CC1			H37Rv	resazurin		MIC		12 µM
C[C@@H]1CN(c2c(F)c(N)c3c(=O)c(C(=O)O)cn(C4CC4)c3c2F)C[C@H](C)N1			19 strains			MIC50		0.12 µg/mL
CC(C)c1oc(=O)cc2c1[C@@H](O)[C@H]1OC(=O)[C@@]3(C)[C@@H](O)[C@H]4O[C@H]4[C@@]2(C)[C@@H]13		12.5 µg/mL	H37Rv	BACTEC		inhibition		26%
CC(=O)NC(C)C(CC[C@@H](OC(C)=O)[C@@H](COC(C)=O)OC(C)=O)OC(C)=O		25 µg/mL	H37Rv	agar		inhibition		inactive
CCCCCC(O)c1c(-c2ccccc2)c(-c2ccccc2)n2ccc(C#N)cc12			H37Rv			MIC		6.25 µg/mL
CC(=O)Nc1ccc2nc(NC(=O)CSc3nnc(-c4ccc5ncccc5c4)o3)sc2c1			H37Rv	agar		MIC		62.5 µg/mL
C=CCNC(=O)NC(=O)CSC1=NNC2(C(=O)N1)c1ccccc1-c1ccccc12			H37Rv	BACTEC		MIC bound		>12.5 µg/mL
CC(C)[C@H](NC(=O)OCc1ccccc1)c1cnc(-c2ccc([N+](=O)[O-])cc2)[nH]1			My 331/88			MIC	21 d	16 µM
O=c1cc(-c2ccccc2)c2cc(Cl)ccc2o1	Cycloserine-resistant			resazurin		MIC90		>100 µg/mL
O=C(CSc1nnc(-c2ccc3ncccc3c2)o1)Nc1ccc(I)cc1			H37Rv	agar		MIC		200 µg/mL
CCCCNC(=S)S			RMP-R			MIC		>12.5 µg/mL
O=C(CSc1nnc(-c2ccc3ncccc3c2)o1)Nc1ccc(Cl)cc1			H37Rv	agar		MIC		62.5 µg/mL
COc1ccc(-c2oc(/C=N/NC(N)=S)c([N+](=O)[O-])c2-c2ccc(OC)c(OC)c2)cc1OC			H37Rv	BACTEC		MIC bound		>12.5 µg/mL
CC(=O)OC[C@@H](OC(C)=O)[C@H](/C=C/CC(C)[N+](=O)[O-])OC(C)=O		6.25 µg/mL	H37Rv	agar		inhibition		100%
CCCCc1ccc(-n2sc3ncc(-c4ccccc4)cc3c2=O)cc1		6.25 µg/mL	H37Rv	resazurin		inhibition		97%
CC1COc2c(N3CCN(C)CC3)c(F)cc3c(=O)c(C(=O)O)cn1c23	Isoniazid-resistant		35822	broth dilution		MIC80		0.7 µM
N#Cc1ccn2c(-c3ccc(Cl)cc3)c(-c3ccc(Cl)cc3)c(Br)c2c1		6.25 µg/mL	H37Rv		VERO	inhibition		100%
CC(=O)NS(=O)(=O)c1ccc(N=NC2C(=O)N(C(=O)c3ccncc3)N=C2C)cc1		12.8 µg/mL	H37Rv	BACTEC		inhibition		18%
C[C@H](NC(=O)OCc1ccccc1)c1cnc(-c2ccccc2)[nH]1			My 331/88			MIC	14 d	125 µM
O=C1CSC2=NC3=C(COC/C3=C/c3ccc(Br)cc3)C(c3ccc(Br)cc3)N12			H37Rv	BACTEC		MIC bound		>12.5 µg/mL
Cc1ccccc1Nc1nnc(-c2sc3ccc(Cl)cc3c2Cl)s1		6.25 µg/mL	H37Rv	BACTEC		inhibition		0%
O=C(CSc1nnc(-c2ccc3ncccc3c2)o1)Nc1nc2ccc(Br)cc2s1			H37Rv	agar		MIC		6.25 µg/mL
N=C(N)N=C1/C(=C/c2ccco2)CNC/C1=C\c1ccco1			H37Rv	agar / visual reading		MIC		6.25 µg/mL
CC(=O)OC[C@@H](OC(C)=O)[C@@H](/C=C/C(O)C[N+](=O)[O-])OC(C)=O		12.5 µg/mL	H37Rv	agar		inhibition		inactive
O=C(NNC(=S)Nc1ccccc1)c1sc2ccc(Cl)cc2c1Cl		6.25 µg/mL	H37Rv	BACTEC		inhibition		0%
Cc1ccc(/C=N/NC(=O)Nc2ccc3c(c2)C(=O)C(=O)N3CN(C)C)cc1			MDR	resazurin		MIC		>50 µg/mL
N#Cc1ccn2c(-c3ccccc3)c(-c3ccccc3)c(C(O)c3ccccc3)c2c1		6.25 µg/mL	H37Rv		VERO	inhibition		100%
O=C(NNC(=S)Nc1cccc(Cl)c1)c1sc2ccc(Cl)cc2c1Cl		6.25 µg/mL	H37Rv	BACTEC		inhibition		0%
COc1ccc(-c2noc(C3=CC4(CCN(CC5CCCO5)CC4)c4ccccc43)n2)cc1	Ofloxacin-resistant		12119	resazurin		MIC		0.78 µM
Cc1nnc(NS(=O)(=O)c2ccc(N=Nc3c(N)nc(N)[nH]c3=O)cc2)s1		12.5 µg/mL	H37Rv	BACTEC		inhibition		12%
Cc1ccc(Cl)c(Nc2nnc(-c3sc4ccc(Cl)cc4c3Cl)s2)c1		6.25 µg/mL	H37Rv	BACTEC		inhibition		0%
CCCCC/C(CC1NC(=S)NC1=O)=N\NC(=O)c1ccncc1	KatG *741R		H37Rv	visual reading / absorbance		MIC		6.3 µM
CSC(=S)N/N=C(\C)c1ccc[nH]1		12.5 µg/mL	H37Rv	BACTEC		inhibition		99%
CCCCC(=O)c1ccn2c(-c3ccccc3)c(-c3ccccc3)c(C(OC)c3ccccc3)c2c1		6.25 µg/mL	H37Rv			inhibition		81%
O=C(CCCn1cnc([N+](=O)[O-])n1)NCCn1ccnc1[N+](=O)[O-]		6.25 µg/mL	H37Rv	resazurin		inhibition		-26%
CC[C@@H](C)[C@H](NC(=O)OCc1ccccc1)c1cnc(-c2ccc([N+](=O)[O-])cc2)[nH]1			My 331/88			MIC	14 d	16 µM
CCN(CC)c1ccc(N=C2C=C(Cl)C(=O)c3ncccc32)c(C)c1			H37Rv	resazurin		MIC		0.78 µg/mL
COC(=O)c1c(Cc2ccccc2)n([O-])c2cc(Cl)c(Cl)cc2[n+]1=O			H37Rv			MIC		>6.25 µg/mL
COc1ccc(NC(=O)/N=C2\CN(C(=O)c3c(F)cccc3F)C(=O)N2c2ccc(OC)cc2)cc1			H37Rv	BACTEC		MIC bound		>12.5 µg/mL
O=C(CSc1nnc(-c2ccc3ncccc3c2)o1)Nc1nc2ccc([N+](=O)[O-])cc2s1			H37Rv	agar		MIC		50 µg/mL
Cc1nnc2nc(N)[nH]n2c1=O		6.25 µg/mL	H37Rv	resazurin		inhibition		-4%
Fc1ccccc1N=C1/C(=C/c2ccco2)CNC/C1=C\c1ccco1			H37Rv	agar / visual reading		MIC		3.125 µg/mL

4 of the rows above, restated:

COC(=O)c1c(Cc2ccccc2)n([O-])c2cc(Cl)c(Cl)cc2[n+]1=O ; strain or isolate: H37Rv ; read-out: MIC ; value: >6.25 µg/mL
N#Cc1ccn2c(-c3ccccc3)c(-c3ccccc3)c(C(O)c3ccccc3)c2c1 ; dose: 6.25 µg/mL ; strain or isolate: H37Rv ; cells: VERO ; read-out: inhibition ; value: 100%
CN[C@@H]1[C@H](O[C@H]2[C@H](O[C@H]3[C@H](O)[C@@H](O)[C@H](N=C(N)N)[C@@H](O)[C@@H]3N=C(N)N)O[C@@H](C)[C@]2(O)C=O)O[C@@H](CO)[C@H](O)[C@H]1O ; changes: Bedaquiline-resistant A63P ; read by: broth dilution ; read-out: MIC80 ; value: 0.3 µM
N=C(N)N=C1/C(=C/c2ccco2)CNC/C1=C\c1ccco1 ; strain or isolate: H37Rv ; read by: agar / visual reading ; read-out: MIC ; value: 6.25 µg/mL